Results from publication PMC5940772 (Nature Communications, 2018).

B1: NS1-FL (W187A), strain A/Puerto Rico/8/1934 H1N1 (natural protein)
chain: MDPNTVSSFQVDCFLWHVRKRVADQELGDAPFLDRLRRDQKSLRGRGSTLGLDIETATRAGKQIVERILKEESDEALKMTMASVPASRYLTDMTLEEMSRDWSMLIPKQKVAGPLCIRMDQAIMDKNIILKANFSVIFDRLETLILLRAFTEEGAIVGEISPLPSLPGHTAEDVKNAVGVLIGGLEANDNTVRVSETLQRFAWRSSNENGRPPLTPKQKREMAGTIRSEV
B2: NS1-FL (R38A/K41A/W187A), strain A/Puerto Rico/8/1934 H1N1 (natural protein)
chain: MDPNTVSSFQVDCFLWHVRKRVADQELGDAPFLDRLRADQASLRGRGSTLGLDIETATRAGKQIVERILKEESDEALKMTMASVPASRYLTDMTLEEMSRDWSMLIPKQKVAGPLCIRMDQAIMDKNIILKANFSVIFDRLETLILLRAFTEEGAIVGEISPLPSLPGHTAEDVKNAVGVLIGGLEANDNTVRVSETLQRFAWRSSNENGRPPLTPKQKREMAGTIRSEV

Target: the molecule itself

| Protein | stoichiometry N |
| --- | --- |
| B1 | 2 |
| B2 | 2 |
